The source of these data is article PMC10823733, “Promising antibacterial efficacy of arenicin peptides against the emerging opportunistic pathogen Mycobacterium abscessus” (Journal of Biomedical Science, 2024).

This series deals with A498 cells. The experiment in a line: Cytotoxic assay on human cells (resazurin). The series is classed as cell-based. Here is the method:
The toxicity of each peptide was evaluated on human cell lines using a resazurin assay as previously described. Human lung epithelial cells BEAS-2B (ATCC CRL-9609), liver cells HepG2 (ATCC HB-8065), and kidney cells A498 (ATCC HTB-44) were used. All cells were cultured in Dulbecco's modified essential medium (DMEM) supplemented with 10% heat-inactivated fetal calf serum (FBS, Thermo Fisher Scientific), and 1% L-glutamine (Thermo Fisher Scientific) (DMEM^FBS) at 37 °C in a 5% CO2 incubator to subconfluent concentrations. Cells were detached with trypsin–EDTA solution (Thermo Fisher Scientific), and around 1 × 10^4 cells/well were seeded in 96-well flat-bottom microplates (Greiner Bio-One) with a lid, and cultured for additional 48–72 h at 37 °C and 5% CO2 until cell confluence. The medium was removed, and 100 µL of serial two-fold dilutions of the peptides in DMEM^FBS were added to each well. Following a 48 h-incubation period at 37 °C and 5% CO2, cell viability was evaluated using the resazurin assay as described above. Fluorescence of the resazurin metabolite resorufin (λex/λem = 530/590 nm) was measured after 2 h incubation at 37 °C and 5% CO2 in the dark, with a microplate reader (Biotek, Synergy Mx, Colmar, France). […]

Positions of bridges follow the written chain, without caps; N, C: chain ends. Residues, ends and D or L forms follow the SMILES beside them.

Consider `CC(C)[C@@H]1NC(=O)CNC(=O)[C@H](CC(N)=O)NC(=O)[C@H](CCCNC(=N)N)NC(=O)[C@H](Cc2ccc(O)cc2)NC(=O)[C@H](C(C)C)NC(=O)[C@@H]2CSSC[C@H](NC(=O)[C@H](C(C)C)NC(=O)[C@H](CCCNC(=N)N)NC1=O)C(=O)N[C@@H](Cc1ccc(O)cc1)C(=O)N[C@@H](CCCNC(=N)N)C(=O)N[C@@H](CCCNC(=N)N)C(=O)N[C@H](C(=O)N[C@@H](CC(N)=O)C(=O)O)CSSC[C@H](NC(=O)[C@H](Cc1ccccc1)NC(=O)CN)C(=O)N[C@@H](Cc1c[nH]c3ccccc13)C(=O)N[C@@H](Cc1ccc(O)cc1)C(=O)N[C@@H](C(C)C)C(=O)N2` [Ar-3] (H-GFCWYVCVYRNGVRVCYRRCN-OH; disulfide 3-20, 7-16), for which the “TIA498 (therapeutic index)” value reads like this: (CC50 on A498 divided by MIC50, R variant) 1.0; (CC50 on A498 divided by MIC50, S variant) 8.8.
